The values below come from US8835507B2, “Adamantane derivatives possessing anti-viral and anti-microbial activity” (priority 2012, dated 2014).

Data set [1] deals with Vaccinia virus, WR strain. The conditions noted are these: TC50/IC50.

Turning to `C(CNC12CC3CC(CC(C3)C1)C2)NC12CC3CC(CC(C3)C1)C2` [Compound 6], the SI is 5 in the data set with Tacaribe virus and 1 in the data set on Pichinde virus. In data set [1], the “Therapeutic Index” value is 17.45.
On the same counts, the results for `ClN(CCN(Cl)C12CC3CC(CC(C3)C1)C2)C12CC3CC(CC(C3)C1)C2` [Compound 7] are 17, 0 and 9.96.
As for `NC(=O)c1ncn([C@@H]2O[C@H](CO)[C@@H](O)[C@H]2O)n1` [Ribivirin, reference compound], the “Therapeutic Index” value in data set [1] is reported as greater than 3.5.
